Experimental data as given in ChEMBL document CHEMBL4513135, “CO-ADD screening of IQOG CSIS (Spain) compounds”.

Tests used:
Escherichia coli = test: Antibacterial activity against Escherichia coli ATCC 25922 (CO-ADD:GN_001); MIC in CAMBH media using NBS plates, by OD(600); conditions: Concentration 32.0 ug.mL-1
Staphylococcus aureus = test: Antibacterial activity against Staphylococcus aureus MRSA ATCC 43300 (CO-ADD:GP_020); MIC in CAMBH media, using NBS plates, by OD(600); conditions: Concentration 32.0 ug.mL-1

Compound: COc1ccc(C=C(C#N)C#N)cc1
- inhibition (Escherichia coli): -4.61%
- inhibition (Staphylococcus aureus): -5.84%
